Measured values from several laboratories, pooled; numbers as filed in NIAID ChemDB.

All rows: cytotoxicity tests; cells: H9; read-out: CC50

Blank or dashed fields: not listed here. CCn is the concentration with n% toxicity to the cells. Lines come from different laboratories, so protocols vary.

compound,read by,result
CC(C)[C@H](NC(=O)OCc1ccccn1)C(=O)NC(Cc1ccccc1)C(O)C(F)(F)C(Cc1ccccc1)NC(=O)[C@@H](NC(=O)OCc1ccccn1)C(C)C,trypan blue,25 µM
Nc1nc(=O)n([C@@H]2C[C@H](O)[C@@H](CO)O2)cc1-c1ccncc1,,>10 µg/mL
CN[C@H]1C[C@@H](N)[C@H](O)[C@@H](O[C@@H]2O[C@H](CO)[C@H](O)[C@@H]3OC4(O[C@H]23)O[C@H]([C@@H](N)CO)[C@H](O)[C@@H](O)[C@H]4O)[C@@H]1O,MTT,>200 µM
O=C(O[C@H]1Cc2c(O)cc3c(c2O[C@H]1c1cc(O)c(O)c(O)c1)[C@H]1c2c(O)cc(O)cc2O[C@@](c2cc(O)c(O)c(O)c2)(O3)[C@@H]1O)c1cc(O)c(O)c(O)c1,,40 µg/mL
Cc1cn([C@H]2C[C@H](F)[C@@H](CO)O2)c(=O)[nH]c1=O,,1000 µM
Cc1c(O)c(C=O)c2c(c1O)C(=O)C[C@@H](c1ccccc1)O2,cell count,2.15 µg/mL
O=C(O[C@@H]1Cc2c(O)cc(O)cc2O[C@@H]1c1ccc(O)c(O)c1)c1cc(O)c(O)c(O)c1,,>10 µg/mL
CCC(c1cccc(NS(=O)(=O)c2ccc(C#N)cn2)c1)c1c(O)c2c(oc1=O)CCC2,,>30 µM
COc1cc2c(cc1OC)[C@@H](Nc1ccc(C#N)cc1)[C@H]1COC(=O)[C@@H]1[C@@H]2c1cc(OC)c(O)c(OC)c1,,0.141 µg/mL
CC(C)(C)OC(=O)N[C@@H](Cc1ccccc1)[C@@H](O)C[C@@H](Cc1ccc(OCc2nn[nH]n2)cc1)C(=O)N[C@H]1c2ccccc2C[C@H]1O,,>200 µM
Cc1cc(=O)c2ccc3c(c2o1)[C@@H](OC(=O)C12CCC(C)(C(=O)O1)C2(C)C)[C@@H](OC(=O)CC(C)C)C(C)(C)O3,,>32.2 µM
COc1c(C)c(O)c(C(=O)/C=C(\O)c2ccccc2)c(O)c1C=O,cell count,10.7 µg/mL
Cc1ccc(C(=O)OC[C@H]2O[C@@H](n3cc(-c4ccncc4)c(N)nc3=O)C[C@@H]2OC(=O)c2ccc(C)cc2)cc1,,>10 µg/mL
COc1cc2oc(-c3ccccc3)cc(=O)c2c(O)c1OC,cell count,20.2 µg/mL
CC(C)(C)OC(=O)N[C@@H](Cc1ccccc1)[C@@H](O)C[C@@H](Cc1ccc(OCC(=O)O)cc1)C(=O)N[C@H]1c2ccccc2C[C@H]1O,,>200 µM
Nc1ncnc2c1ncn2CCOCP(=O)(O)O,,81 µM
Cc1cc2c(C(C)C)c(O)c(O)c(C=O)c2c(O)c1-c1c(C)cc2c(C(C)C)c(O)c(O)c(C=O)c2c1O,,>25 µM
CC1CNC(=O)c2ccccc2SSc2ccccc2C(=O)N1,,50 µg/mL
COc1ccc(S(=O)(=O)N(CC(C)C)C[C@@H](O)[C@H](Cc2ccccc2)NC(=O)O[C@H]2CO[C@H]3OCC[C@H]32)cc1,,>0.1 µM
COc1cc2c(cc1OC)[C@@H](Nc1ccc(F)cc1)[C@H]1COC(=O)[C@@H]1[C@@H]2c1cc(OC)c(OC)c(OC)c1,,1.43 µg/mL
CC1=C(O)C2=C(O[C@H](c3ccccc3)CC2=O)C(C)(C)C1=O,cell count,1.89 µg/mL
CC1(C)Oc2ccc3c(=O)c(-c4ccccc4)coc3c2[C@@H](OC(=O)C23CCC(C)(C(=O)O2)C3(C)C)[C@H]1OC(=O)C12CCC(C)(C(=O)O1)C2(C)C,,>35.82 µM
COc1c(C)c(O)c(C=O)c2c1C(=O)C[C@@H](c1ccccc1)O2,cell count,108 µg/mL
CC(CC(=O)O)CC(=O)O[C@H]1CC[C@@]2(C)C(CC[C@]3(C)C2CC=C2C4CC(C)(C)CC[C@]4(C(=O)O)CC[C@]23C)C1(C)C,,27.5 µg/mL
O=C(O[C@@H]1Cc2c(O)cc(O)cc2O[C@@H]1c1cc(O)c(O)c(O)c1-c1c([C@H]2Oc3cc(O)cc(O)c3C[C@H]2O)cc(O)c(O)c1O)c1cc(O)c(O)c(O)c1,,9.5 µg/mL
COc1cc([N+](=O)[O-])c(OC)cc1N[C@@H]1c2cc3c(cc2[C@@H](c2cc(OC)c(O)c(OC)c2)[C@H]2C(=O)OC[C@@H]21)OCO3,,1.76 µg/mL
COc1cc(-c2oc3cc(O)cc(O)c3c(=O)c2O)ccc1O,,28.3 µg/mL
CC(=O)OC[C@]12[C@H](OC(C)=O)[C@H](OC(C)=O)[C@@H]3[C@@H](OC(C)=O)[C@@]14O[C@@]3(C)COC(=O)c1cccnc1CCC(C)C(=O)O[C@@H]([C@H](OC(=O)c1ccoc1)[C@@H]2OC(C)=O)C4(C)O,,>100 µg/mL
CC(C)(C)OC(=O)N[C@@H](Cc1ccccc1)[C@@H](O)C[C@@H](Cc1ccc(OCc2nnnn2Cc2ccccc2)cc1)C(=O)N[C@H]1c2ccccc2C[C@H]1O,,>200 µM
Cc1ccc(C(=O)OC[C@H]2O[C@@H](n3cc(-c4cccn4C)c(N)nc3=O)C[C@@H]2OC(=O)c2ccc(C)cc2)cc1,,<10 µg/mL
Cc1cn([C@H]2C[C@H](N=[N+]=[N-])[C@@H](CO)O2)c(=O)[nH]c1=O,,500 µg/mL
Cc1ccc(-c2ccc3c(c2)C=C(C(=O)Nc2ccc(C[N+](C)(C)C4CCOCC4)cc2)CCC3)cc1,,>10 µM
CCC(C1=C(O)C2CCCC2OC1=O)c1cccc(NS(=O)(=O)c2ccc(C#N)cn2)c1,,>30 µM
Nc1nc(=O)n([C@H]2C[C@H](O)[C@@H](CO)O2)cc1-c1ccncc1,,>10 µg/mL
CC1(C)Oc2ccc3ccc(=O)oc3c2[C@@H](OC(=O)C23CCC(C)(C(=O)O2)C3(C)C)[C@H]1OC(=O)C12CCC(C)(C(=O)O1)C2(C)C,,35 µM
C[C@H]1[C@H](C)CC[C@]2(C(=O)O)CC[C@]3(C)C(=CCC4[C@@]5(C)C[C@@H](O)[C@H](O)[C@@](C)(CO)[C@@H]5CC[C@]43C)[C@H]12,,9 µg/mL
Cc1cn([C@H]2C[C@H](N=[N+]=[N-])[C@@H](CO)O2)c(=O)[nH]c1=O,,>100 µM
CCC(c1cccc(NS(=O)(=O)c2ccc(C#N)cn2)c1)c1c(O)c2c(oc1=O)CCCC2,,>30 µM
O=C(O[C@H](Cc1c(O)cc(O)cc1O)C(c1cc(O)c(O)c(O)c1)c1c(O)cc2c(c1O)C[C@@H](OC(=O)c1cc(O)c(O)c(O)c1)[C@@H](c1cc(O)c(O)c(O)c1)O2)c1cc(O)c(O)c(O)c1,,35 µg/mL
CCC(c1cccc(NS(=O)(=O)c2ccc(C#N)cn2)c1)c1c(O)c2c(oc1=O)CCCCCCCC2,,>30 µM
CC(=O)OC[C@]12[C@H](OC(C)=O)[C@H](OC(C)=O)[C@@H]3[C@@H](OC(C)=O)[C@@]14O[C@@]3(C)COC(=O)c1cnccc1[C@@H](C)[C@@](C)(O)C(=O)O[C@@H]([C@H](OC(=O)c1ccoc1)[C@@H]2OC(C)=O)C4(C)O,,>100 µg/mL
COc1cc([C@@H]2c3cc4c(cc3[C@H](O)[C@H]3COC(=O)[C@H]23)OCO4)cc(OC)c1OC,,0.0025 µg/mL
CC1(C)CC[C@]2(C(=O)O)CC[C@]3(C)C(=CCC4[C@@]5(C)CC[C@H](OC(=O)CC6(CC(=O)O)CCCC6)C(C)(C)C5CC[C@]43C)C2C1,,4.7 µg/mL
CCc1cc(=O)c2cc(C(C)(C)C)c3c(c2o1)[C@@H](OC(=O)C12CCC(C)(C(=O)O1)C2(C)C)[C@@H](OC(=O)C12CCC(C)(C(=O)O1)C2(C)C)C(C)(C)O3,,35.4 µM
CC(C)[C@H](NC(=O)OCc1ccccn1)C(=O)NC(Cc1ccccc1)C(O)C(F)(F)C(N)Cc1ccccc1,trypan blue,130 µM
COc1cc2oc(-c3ccccc3)cc(=O)c2c(O)c1O,cell count,11.5 µg/mL
CC1(C)CC[C@]2(C(=O)O)CC[C@]3(C)C(=CCC4[C@@]5(C)CCC(=O)C(C)(C)C5CC[C@]43C)C2C1,,0.8 µg/mL
Cc1cn([C@H]2C[C@H](N=[N+]=[N-])[C@@H](CO)O2)c(=O)[nH]c1=O,,47 µM
OCc1cc(OCc2ccccc2)c(OCc2ccccc2)c(O)c1-c1c(CO)cc(OCc2ccccc2)c(OCc2ccccc2)c1O,,13 µM
CC(C)[C@H](NC(=O)OCCN1CCOCC1)C(=O)N[C@@H](Cc1ccccc1)[C@H](O)[C@H](O)[C@H](Cc1ccccc1)NC(=O)[C@@H](NC(=O)OCCN1CCOCC1)C(C)C,trypan blue,>100 µM
COc1cc([C@@H]2c3cc4c(cc3[C@@H](Nc3ccc(-c5nc6ccccc6[nH]5)cc3)[C@H]3COC(=O)[C@H]23)OCO4)cc(OC)c1O,,0.016 µg/mL
CC(C)C(=O)O[C@@H]1[C@H](OC(=O)C23CCC(C)(C(=O)O2)C3(C)C)c2c(ccc3c(=O)cc(-c4ccccc4)oc23)OC1(C)C,,>42.5 µM
O=Cc1cc(OCc2ccccc2)c(OCc2ccccc2)c(OCc2ccccc2)c1-c1c(C=O)cc(OCc2ccccc2)c(OCc2ccccc2)c1OCc1ccccc1,,70 µM
COc1c(C)c(O)c2c(=O)cc(-c3ccccc3)oc2c1C,cell count,19.8 µg/mL
CCCCCCc1ccsc1-c1cn([C@@H]2C[C@H](OC(=O)c3ccc(C)cc3)[C@@H](COC(=O)c3ccc(C)cc3)O2)c(=O)[nH]c1=O,,10 µg/mL
CC1(C)CC[C@]2(C(=O)O)CC[C@]3(C)C(=CCC4[C@@]5(C)CC[C@H](OC(=O)COCC(=O)O)C(C)(C)C5CC[C@]43C)C2C1,,22.1 µg/mL
CC(C)OP(=O)(COc1ccc(C[C@H](C[C@H](O)[C@H](Cc2ccccc2)NC(=O)OC(C)(C)C)C(=O)N[C@H]2c3ccccc3C[C@H]2O)cc1)OC(C)C,,130 µM
CCC(c1cccc(NS(=O)(=O)c2ccc(C#N)cn2)c1)c1c(O)c2c(oc1=O)CCCCC2,,>30 µM
COc1c(OCc2ccccc2)c(OCc2ccccc2)cc(CO)c1-c1c(CO)cc(OCc2ccccc2)c(OCc2ccccc2)c1OC,,>140 µM
CC(C)[C@H](NC(=O)Cn1ccnc1)C(=O)N[C@@H](Cc1ccccc1)C(O)[C@H](Cc1ccccc1)NC(=O)[C@@H](NC(=O)OCc1ccccc1)C(C)C,trypan blue,>100 µM
CCCCCCc1ccsc1-c1cn([C@H]2C[C@H](OC(=O)c3ccc(C)cc3)[C@@H](COC(=O)c3ccc(C)cc3)O2)c(=O)[nH]c1=O,,>10 µg/mL
CC(C)[C@H](NC(=O)OCc1ccccn1)C(=O)N[C@@H](Cc1ccccc1)[C@H](O)[C@@H](O)[C@H](Cc1ccccc1)NC(=O)[C@@H](NC(=O)OCc1ccccn1)C(C)C,trypan blue,>100 µM
CC1(C)CC[C@]2(C(=O)O)CC[C@]3(C)C(=CCC4[C@@]5(C)CC[C@H](OC(=O)CCC(=O)O)C(C)(C)C5CC[C@]43C)C2C1,,6.5 µg/mL
O=C(O[C@@H]1Cc2c(O)cc(O)cc2O[C@@H]1c1cc(O)c(O)cc1-c1c([C@H]2Oc3cc(O)cc(O)c3C[C@H]2OC(=O)c2cc(O)c(O)c(O)c2)cc(O)c(O)c1O)c1cc(O)c(O)c(O)c1,,50 µg/mL